Experimental data taken from patent publication US5811454A (priority 1993, dated 1998).

Tests used:
[1] = Chemical half-lives measured in a pH stat by titrating against NaOH; details: for Active Drug t1/2 (chemical half-life): pH stat, titration against NaOH; for Reactivity compared to non-fluorinated analogues (from chemical half-lives): in words
[2] = test system: colorectal cell line LS174T; details: read-out: Active Drug IC50, active drug alone, 1 h

SMILES | Active Drug t1/2 (chemical half-life) [1] [h] | IC50 [2] [µM] | Reactivity compared to non-fluorinated analogues (from chemical half-lives) [1]
O=C(O)c1ccc(N(CCCl)CCCl)cc1 | 5.4 | – | –
O=C(O)c1ccc(N(CCCl)CCCl)cc1F | 20.7 | > 800 | deactivated
O=C(O)c1ccc(N(CCCl)CCCl)c(F)c1 | 1.2 | 270 | activated
